Measured values from several laboratories, pooled; numbers as filed in NIAID ChemDB.

Common to all: growth or infection tests; agent: Herpes simplex virus 1; method: cytopathic effect; read-out: EC50

ECn: concentration that inhibits the pathogen or its effect by n%. An empty or dashed field is not shown. Neighbouring rows are from separate reports.

smiles | strain | cells | mutations | result
Nc1nc2c(ncn2COCCO)c(=O)[nH]1 | KOS | HEL | TK-deficient acyclovir-resistant | 50 µM
Nc1ncnc2c1ncn2[C@@H]1O[C@H](CO)[C@@H](O)[C@@H]1O | KOS | HEP-2 |  | 100 µg/mL
CC(Sc1ncnc2c1cnn2COCCO)C(N)=O | KOS | E6SM |  | >400 µg/mL
CC=NC(=N)c1nc(-c2ccccc2)n(C/C=C/c2ccccc2)n1 | KOS | E6SM |  | >4 µg/mL
O=c1[nH]c(=O)n([C@@H]2C[C@H](CO)[C@@H](O)C2)cc1I | KOS | PRK |  | 0.07 µg/mL
COc1nc(=O)n([C@H]2C[C@H](O)[C@@H](CO)O2)cc1/C=C/Cl | VMW1837 (TK-) | PRK |  | >200 µg/mL
Nc1nc2c(ncn2COCCO)c(=O)[nH]1 | KOS | HEP-2 |  | 2 µg/mL
CC=NC(=N)c1nc(-c2cccc(OC)c2)n(C/C=C/c2ccccc2)n1 | VMW 1837 | E6SM |  | >10 µg/mL
CC1(CO)CCC(Cn2nnc3c(N)nc(N)nc32)C1(C)C | TK-/B2006 | E6SM |  | 150 µg/mL
Nc1ccn([C@@H]2O[C@H](CO)[C@@H](O)[C@@H]2O)c(=O)n1 | KOS | T-21 |  | 0.04 µg/mL
Cc1cn([C@@H]2CO[C@H](CO)[C@@H](O)C2)c(=O)[nH]c1=O | TK-/TK+ (VMW 1837) | E6SM |  | >20 µg/mL
C=C(N=CC)c1nc(-c2cccc(OC)c2)n(C2O[C@H](CO)[C@@H](O)[C@H](O)[C@H]2O)n1 | KOS | E6SM |  | 300 µg/mL
O=C(O)P(=O)(O)O | HU-10 | HEL |  | >667 µM
C/C(=N/Nc1nc(-c2ccccc2)cs1)c1ccc(NC(=O)CN2C(=O)c3ccccc3S2(=O)=O)cc1 | KOS | HEL | TK-deficient acyclovir-resistant | 20 µM
O=c1[nH]c(=O)n([C@H]2C[C@H](O)[C@@H](CO)O2)cc1/C=C/Br | TK- KOS ACVr | Human embryonic lung fibroblasts |  | 50 µM
CO[C@H](CO)[C@@H](O)CCn1cnc2c(N)ncnc21 | F | E6SM |  | >400 µg/mL
CC(C)NS(=O)(=O)c1ccccc1C(=O)N/N=C/c1ccc(F)cc1 | KOS | HEL |  | >100 µM
O=c1c2ncn(COCCO)c2nc2[nH]c(-c3ccccc3)c(Cc3ccc(F)cc3)n12 | F | HEL |  | >16 µg/mL
CCCc1cn([C@H]2C[C@H](O)[C@@H](CO)O2)c(=O)[nH]c1=O | KOS | HSF |  | 2.6 µg/mL
O=[N+]([O-])c1cc([C@H]2C[C@H](O)[C@@H](CO)O2)c(F)cc1F | VMW 1837 | E6SM |  | >400 µg/mL
O=c1[nH]c(=O)n([C@H]2C[C@H](O)[C@@H](CO)O2)cc1/C=C\Cl | VMW1837 (TK-) | PRK |  | >200 µg/mL
OC[C@H]1O[C@@H](c2cc(/C=C/Br)c(F)cc2F)C[C@@H]1O | KOS ACV-R (TK-) | E6SM |  | >400 µg/mL
O=c1[nH]n2c(-c3cn(-c4ccccc4)nc3-c3ccccc3)nnc2s1 | KOS (TK-) | HEL |  | >16 µg/mL
CCCCCCCC/C=C/CCCCCCCC(=O)OCC(CO)OCn1cnc2c(=O)[nH]c(N)nc21 | HU-3 | HEL |  | 0.0002 µM
O=c1[nH]c(=O)n([C@H]2C[C@H](O)[C@@H](CO)O2)cc1I | VDX500 | PRK |  | 0.1 µg/mL
O=c1[nH]c(=O)n([C@H]2C[C@H](O)[C@@H](CO)O2)cc1/C=C/Br | KOS | T-21 |  | 0.005 µg/mL
Nc1nc(=O)c(/C=C/Br)cn1[C@H]1C[C@H](O)[C@@H](CO)O1 | F | PRK |  | 70 µg/mL
C/C(=N/Nc1nc(-c2ccc(C)cc2)cs1)c1ccc(NC(=O)CN2C(=O)c3ccccc3S2(=O)=O)cc1 | KOS | HEL | TK-deficient acyclovir-resistant | 20 µM
OC[C@H]1O[C@@H](c2cc(C(O)CBr)c(F)cc2F)C[C@@H]1O | VMW 1837 | E6SM |  | >3.2 µg/mL
CCC(Sc1ncnc2c1cnn2COCC(O)CO)C(N)=O | KOS | E6SM |  | >400 µg/mL
CSCc1cn([C@H]2C[C@H](O)[C@@H](CO)O2)c(=O)[nH]c1=O | VDX500 | PRK |  | 20 µg/mL
Nc1nc2c(ncn2COCCO)c(=O)[nH]1 | 12959 DM21 acyclovir-resistant | HFF |  | >50 µg/mL
O=c1[nH]c(=O)n([C@H]2C[C@H](O)[C@@H](CO)O2)cc1/C=C/Br | F | Primary rabbit kidney cells |  | 0.01 µg/mL
CO[C@H](CO)[C@@H](O)CCn1cnc2c(=O)[nH]c(N)nc21 | KOS | E6SM |  | >400 µg/mL
Cc1cc([C@H]2C[C@H](O)[C@@H](CO)O2)c(F)cc1Cl | KOS/ACV-R | E6SM |  | >400 µg/mL
CC(C)NS(=O)(=O)c1ccccc1C(=O)N/N=C/c1ccc(-c2cccs2)cc1 | KOS | HEL | TK-deficient acyclovir-resistant | >100 µM
C=C(N=CC)c1nc(-c2ccc(C)cc2)n(C2O[C@H](CO)[C@@H](O)[C@H](O)[C@H]2O)n1 | VMW 1837 | E6SM |  | 150 µg/mL
Cc1cc([C@@H]2C[C@H](O)[C@@H](CO)O2)c(F)cc1F | McIntyre | E6SM |  | >400 µg/mL
[N-]=[N+]=NCc1cn([C@H]2C[C@H](O)[C@@H](CO)O2)c(=O)[nH]c1=O | KOS | HSF |  | 2 µg/mL
O=c1c2ncn(COCCO)c2nc2[nH]c(-c3ccc(F)cc3)cn12 | KOS | HEL |  | >16 µg/mL
CCc1cc([C@H]2C[C@H](O)[C@@H](CO)O2)c(F)cc1F | F | E6SM |  | >400 µg/mL
O=c1[nH]n2c(-c3cn(-c4ccccc4)nc3-c3ccccc3)nnc2sc1=O | KOS (TK-) | HEL |  | >80 µg/mL
CC1(CO)CCC(Cn2cnc3c(Cl)nc(N)nc32)C1(C)C | KOS | E6SM |  | >100 µg/mL
Nc1nc(=O)n([C@@H]2O[C@H](CO)[C@@H](O)[C@@H]2F)cc1I | KOS | ESM |  | 0.01 µg/mL
CCCc1cn([C@H]2C[C@H](O)[C@@H](COP(=O)(O)O)O2)c(=O)[nH]c1=O | CL 101 (TK-) | PRK |  | >797 µg/mL
O=c1[nH]c(=O)n([C@H]2C[C@@H](CO)[C@H](O)C2)cc1I | KOS | PRK |  | 1 µg/mL
Cc1c(-c2ccc(C(F)(F)F)cc2)[nH]c2nc3c(ncn3COCCO)c(=O)n12 | McIntyre | HEL |  | 16 µg/mL
CCC(Sc1ncnc2c1cnn2COCCO)C(N)=O | VWM1837 (TK-) | E6SM |  | >400 µg/mL
Cc1cn([C@H]2CO[C@H](CO)[C@@H](O)C2)c(=O)[nH]c1=O | TK-/B2006 | E6SM |  | >20 µg/mL
O=c1[nH]c(=O)n([C@H]2C[C@H](O)[C@@H](CO)O2)cc1I | KOS | PRK |  | 0.15 µg/mL
[N-]=[N+]=NC(CBr)c1cc([C@H]2C[C@H](O)[C@@H](CO)O2)c(F)cc1F | KOS | E6SM |  | >400 µg/mL
CO[C@H](CO)[C@@H](O)CCn1ccc(N)nc1=O | McIntyre | E6SM |  | >400 µg/mL
O=c1[nH]c(=O)n([C@H]2C[C@@H](CO)[C@H](O)C2)cc1/C=C/Br | F | PRK |  | 10 µg/mL
Nc1ncnc2c1ncn2C[C@@H](CO)OCP(=O)(O)O | 1 (PAA-resistant) | PRK |  | 0.3 µg/mL
NC(=O)CSc1ncnc2c1cnn2COCC(O)CO | VWM1837 (TK-) | E6SM |  | >400 µg/mL
O=c1[nH]c(=O)n([C@H]2C[C@H](O)[C@@H](CO)O2)cc1/C=C/Br | 1 (PAA-resistant) | PRK |  | 0.02 µg/mL
CC1(CO)CCC(Cn2nnc3c(=O)[nH]c(N)nc32)C1(C)C | TK-/B2006 | E6SM |  | >400 µg/mL
CCc1cn([C@H]2C[C@H](O)[C@@H](CO)O2)c(=O)[nH]c1=O | B2006 (TK-) | PRK |  | >400 µg/mL
Nc1nc2c(ncn2COC(CO)CO)c(=O)[nH]1 | KOS | HEL |  | 0.007 µM
CCc1c(CN[C@@H]2CCCC[C@H]2N)c(CC)c2c(CC)c1CN[C@@H]1CCCC[C@H]1NCc1ccc([nH]1)CN[C@@H]1CCCC[C@H]1NC2 | KOS | Human embryonic lung fibroblasts |  | >20 µM
Nc1ccn(CC[C@H](O)CCO)c(=O)n1 | McIntyre | E6SM |  | >400 µg/mL
O=c1[nH]c(=O)n(C2CC(CO)[C@H](O)C2)cc1I | F | PRK |  | 0.1 µg/mL
OC[C@H]1O[C@H](c2cc(I)c(F)cc2F)C[C@@H]1O | VMW 1837 | E6SM |  | >400 µg/mL
NC1=CC(c2ccccc2)=Nn2c(nnc2-c2cn(-c3ccccc3)nc2-c2ccccc2)S1 | KOS | HEL |  | >80 µg/mL
COC(CI)c1cc([C@H]2C[C@H](O)[C@@H](CO)O2)c(F)cc1F | TK-deficient acyclovir-resistant | E6SM |  | >80 µg/mL
Nc1ccn([C@H]2CO[C@H](CO)[C@@H](O)C2)c(=O)n1 | KOS | E6SM |  | 7 µg/mL
Cc1c(-c2ccc(F)cc2)[nH]c2nc3c(ncn3COCCO)c(=O)n12 | F | HEL |  | 0.384 µg/mL
Nc1ncnc2c1ncn2[C@@H]1O[C@H](CO)[C@@H](O)[C@H]1OP(=O)(O)OC[C@H]1O[C@@H](n2cnc3c(N)ncnc32)[C@H](OP(=O)(O)OC[C@H]2O[C@@H](n3cc(/C=C/Br)c(=O)[nH]c3=O)C[C@@H]2O)[C@@H]1O | McIntyre | PRK |  | 0.07 µg/mL
O=Cc1cn([C@H]2C[C@H](O)[C@@H](CO)O2)c(=O)[nH]c1=O | VEO231 | PRK |  | 1 µg/mL
Nc1nc2c(ncn2COCCOP(=O)(O)O[C@@H]2[C@H](O)[C@@H](COP(=O)(O)O[C@@H]3[C@H](O)[C@@H](CO)O[C@H]3n3cnc4c(N)ncnc43)O[C@H]2n2cnc3c(N)ncnc32)c(=O)[nH]1 | KOS | PRK |  | 0.7 µg/mL
CCc1c(CNCc2ccc[nH]2)c(CC)c(CNCc2ccc[nH]2)c(CC)c1CNCc1ccc[nH]1 | TK- KOS ACVr | Human embryonic lung fibroblasts |  | >0.8 µM
NC1=Nn2c(nnc2-c2cn(-c3ccccc3)nc2-c2ccccc2)SC1 | KOS | HEL |  | >16 µg/mL
CCc1cc(CC)c(CNCc2ccc[nH]2)c(CC)c1CNCc1ccc[nH]1 | KOS | Human embryonic lung fibroblasts |  | >0.8 µM
Nc1nc2c(ncn2COC(CO)CO)c(=O)[nH]1 | KOS | HEL |  | 0.03 µM

The last 11 rows once more:

smiles	strain	cells	mutations	result
NC1=CC(c2ccccc2)=Nn2c(nnc2-c2cn(-c3ccccc3)nc2-c2ccccc2)S1	KOS	HEL		>80 µg/mL
COC(CI)c1cc([C@H]2C[C@H](O)[C@@H](CO)O2)c(F)cc1F	TK-deficient acyclovir-resistant	E6SM		>80 µg/mL
Nc1ccn([C@H]2CO[C@H](CO)[C@@H](O)C2)c(=O)n1	KOS	E6SM		7 µg/mL
Cc1c(-c2ccc(F)cc2)[nH]c2nc3c(ncn3COCCO)c(=O)n12	F	HEL		0.384 µg/mL
Nc1ncnc2c1ncn2[C@@H]1O[C@H](CO)[C@@H](O)[C@H]1OP(=O)(O)OC[C@H]1O[C@@H](n2cnc3c(N)ncnc32)[C@H](OP(=O)(O)OC[C@H]2O[C@@H](n3cc(/C=C/Br)c(=O)[nH]c3=O)C[C@@H]2O)[C@@H]1O	McIntyre	PRK		0.07 µg/mL
O=Cc1cn([C@H]2C[C@H](O)[C@@H](CO)O2)c(=O)[nH]c1=O	VEO231	PRK		1 µg/mL
Nc1nc2c(ncn2COCCOP(=O)(O)O[C@@H]2[C@H](O)[C@@H](COP(=O)(O)O[C@@H]3[C@H](O)[C@@H](CO)O[C@H]3n3cnc4c(N)ncnc43)O[C@H]2n2cnc3c(N)ncnc32)c(=O)[nH]1	KOS	PRK		0.7 µg/mL
CCc1c(CNCc2ccc[nH]2)c(CC)c(CNCc2ccc[nH]2)c(CC)c1CNCc1ccc[nH]1	TK- KOS ACVr	Human embryonic lung fibroblasts		>0.8 µM
NC1=Nn2c(nnc2-c2cn(-c3ccccc3)nc2-c2ccccc2)SC1	KOS	HEL		>16 µg/mL
CCc1cc(CC)c(CNCc2ccc[nH]2)c(CC)c1CNCc1ccc[nH]1	KOS	Human embryonic lung fibroblasts		>0.8 µM
Nc1nc2c(ncn2COC(CO)CO)c(=O)[nH]1	KOS	HEL		0.03 µM